Test results reported in US20120219500A1, “DIAGNOSTIC AGENT FOR INFECTIOUS DISEASES” (FUJIFILM RI PHARMA CO., LTD., priority 2009, published 2012).

Tested on: each bacterium
Assay: uptake by the method of Example 2 with metronidazole added
Settings: metronidazole added to achieve 1.5 mM before incubation at 37° C.

Row | Structure (SMILES) | reduction of the rate of uptake by added metronidazole
1 | Cc1ncc([N+](=O)[O-])n1CCNC(=O)c1cccc(I)c1 [Compound 1, [^125I]N1-[2-(2-methyl-5-nitro-1H-1-imidazolyl)ethyl]-3-iodobenzamide] | 71%
2 | O=C(NCCn1ccnc1[N+](=O)[O-])c1cccc(I)c1 [Compound 2, N1-[2-(2-nitro-1H-1-imidazolyl)ethyl]-3-iodobenzamide] | 42%
